Measured values: publication PMC3922157 (Journal of Antimicrobial Chemotherapy, 2013)

How the values were obtained:
[1] = test system: procyclic T. b. brucei 247MR; assay: Drug resistance of procyclic 247MR relative to parental line; type: cell-based; details: procyclic 247MR vs STIB 247 (Figure S2)
[2] = test system: procyclic T. b. gambiense 386MR; assay: Drug resistance of procyclic 386MR relative to parental line; type: cell-based; details: procyclic 386MR vs STIB 386 (Figure S2)

O=[As]c1ccccc1 (centres unmarked)
Resistance relative to parental line [1]: Neither strain displayed resistance
Resistance relative to parental line [2]: Neither strain displayed resistance
